# Experiments:
# Biotin-SBP (human) = assay: BLI
# Biotin-SBP-PEG4 (human) = assay: BLI
substance,measurement,setting,value
SARS-CoV-2 Spike RBD-His (from UniProt P0DTC2) (domain or fragment; other documents disagree on this pair),Kd,Biotin-SBP (human),4.4 µM
same,Kd,Biotin-SBP-PEG4 (human),2.9 µM

# Reference: PMC8442610
